In PMC9231222 (Viruses, 2022):

test system: BVDV; assay: Antiviral assay: inhibition of BVDV-induced cytopathogenicity in MDBK cells; assay type: cell-based; details: selectivity index CC50/EC50 (MDBK / BVDV)

Row | Compound | S.I.
1 | O=C(Nc1ccc(-c2nc3cc(Cl)c(Cl)cc3[nH]2)cc1)c1ccc([N+](=O)[O-])cc1 [Compound 3d, N-(4-(5,6-Dichloro-1H-benzo[d]imidazol-2-yl)phenyl)-4-nitrobenzamide] | >1.9
2 | O=C(Nc1ccc(-c2nc3cc(Cl)ccc3[nH]2)cc1)c1ccc([N+](=O)[O-])cc1 [Compound 2d, N-(4-(5-Chloro-1H-benzo[d]imidazol-2-yl)phenyl)-4-nitrobenzamide] | >52.6
3 | COc1cc(C(=O)Nc2ccc(-c3nc4cc(C)ccc4[nH]3)cc2)cc(OC)c1OC [Compound 6c, N-(4-(5-Methyl-1H-benzo[d]imidazol-2-yl)phenyl)-3,4,5-trimethoxybenzamide] | >434.8
4 | COc1cc(C(=O)Nc2ccc(-c3nc4cc(C)c(C)cc4[nH]3)cc2)cc(OC)c1OC [Compound 7c, N-(4-(5,6-Dimethyl-1H-benzo[d]imidazol-2-yl)phenyl)-3,4,5-trimethoxybenzamide] | >333.3
5 | COc1cc(C(=O)Nc2ccc(-c3nc4ccccc4[nH]3)cc2)cc(OC)c1OC [Compound 1c, N-(4-(1H-Benzo[d]imidazol-2-yl)phenyl)-3,4,5-trimethoxybenzamide] | 12.9
6 | NC(=O)c1ncn([C@@H]2O[C@H](CO)[C@@H](O)[C@H]2O)n1 [Ribavirin, ribavirin, reference compound] | >5.6
7 | C[C@@]1(O)[C@H](O)[C@@H](CO)O[C@H]1n1cnc2c(=O)[nH]c(N)nc21 [NM 108, 2′-C-methylguanosine, reference compound] | >66.7
8 | COc1cc(C(=O)Nc2ccc(-c3nc4cc(Cl)ccc4[nH]3)cc2)cc(OC)c1OC [Compound 2c, N-(4-(5-Chloro-1H-benzo[d]imidazol-2-yl)phenyl)-3,4,5-trimethoxybenzamide] | 500
9 | O=C(Nc1ccc(-c2nc3cc(F)ccc3[nH]2)cc1)c1ccc([N+](=O)[O-])cc1 [Compound 4d, N-(4-(5-Fluoro-1H-benzo[d]imidazol-2-yl)phenyl)-4-nitrobenzamide] | >12.7
10 | COc1cc(C(=O)Nc2ccc(-c3nc4cc(F)c(F)cc4[nH]3)cc2)cc(OC)c1OC [Compound 5c, N-(4-(5,6-Difluoro-1H-benzo[d]imidazol-2-yl)phenyl)-3,4,5-trimethoxybenzamide] | >71.4
11 | O=C(Nc1ccc(-c2nc3cc(F)c(F)cc3[nH]2)cc1)c1ccc([N+](=O)[O-])cc1 [Compound 5d, N-(4-(5,6-Difluoro-1H-benzo[d]imidazol-2-yl)phenyl)-4-nitrobenzamide] | >27.8
12 | COc1cc(C(=O)Nc2ccc(-c3nc4cc(Cl)c(Cl)cc4[nH]3)cc2)cc(OC)c1OC [Compound 3c, N-(4-(5,6-Dichloro-1H-benzo[d]imidazol-2-yl)phenyl)-3,4,5-trimethoxybenzamide] | 21.5
13 | COc1cc(C(=O)Nc2ccc(-c3nc4cc(F)ccc4[nH]3)cc2)cc(OC)c1OC [Compound 4c, N-(4-(5-Fluoro-1H-benzo[d]imidazol-2-yl)phenyl)-3,4,5-trimethoxybenzamide] | >2.4

same assay, conditions: selectivity index CC50/EC50 (MDBK / BVDV); listed as NM108

Row | Compound | S.I.
14 | C[C@@]1(O)[C@H](O)[C@@H](CO)O[C@H]1n1cnc2c(=O)[nH]c(N)nc21 [NM 108, 2′-C-methylguanosine, reference compound] | 66.7

same assay, conditions: selectivity index CC50/EC50 (MDBK / BVDV); listed as ribavirin

Row | Compound | S.I.
15 | NC(=O)c1ncn([C@@H]2O[C@H](CO)[C@@H](O)[C@H]2O)n1 [Ribavirin, ribavirin, reference compound] | 5.6
